# Sequence variants of PSTVd loop 15 after infection

From the data files of Wu et al. 2024, doi:10.1371/journal.ppat.1012142.

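Three N. benthamiana plants were inoculated with the whole mutant pool. Samples came from the inoculated region at 5 days, the leaf margin at 10 and upper systemic leaves at 12.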

The pool varies loop 15 of the PSTVd intermediate strain in the pattern GGAAACCGNNNNNNC; wild type is GGAAACCGCUACUAC (upper and lower strand joined, each 5' to 3', the first 7 letters being the upper strand, closing pairs included).

Values are reads per thousand in the sample; higher means more abundant, 0 means not found. Each value is the mean of three plants. "Pool" is the share in the plasmid pool used as inoculum, on the same scale. The inoculated region was read from the minus strand, the other sites from the plus strand.

sequence	pool	inoculated region	leaf margin	systemic leaves
GGAAACCGUUCAGAC	0.128	0.0915	0.0262	0
GGAAACCGCGAGUUC	0.288	0.321	0.141	0.0610
GGAAACCGAUAAGUC	0.256	0.104	0	0
GGAAACCGAGUAGGC	0.240	0.144	0.00668	0
GGAAACCGGCUCUUC	0.224	0.0730	0.00668	0
GGAAACCGCACCCAC	0.288	0.0968	0.00668	0.00537
GGAAACCGAUUUUGC	0.176	0.118	0.00668	0
GGAAACCGUGGCGCC	0.192	0.0856	0.00742	0
GGAAACCGUGACGAC	0.240	0.0524	0.0254	0
GGAAACCGCACCGCC	0.192	0.119	0.0182	0
GGAAACCGAGCACGC	0.176	0.108	0.00668	0
GGAAACCGAGCAGGC	0.128	0.0904	0.0262	0
GGAAACCGGUGUACC	0.160	0.132	0.0148	0
GGAAACCGGCACUCC	0.224	0.0704	0	0
GGAAACCGACAUCUC	0.288	0.116	0	0.00537
GGAAACCGAGGCUAC	0.240	0.0581	0	0
GGAAACCGUCCACCC	0.192	0.0671	0	0
GGAAACCGUUUGAGC	0.224	0.103	0.0175	0.0107
GGAAACCGACCGUCC	0.208	0.0858	0.0128	0.00537
GGAAACCGCUCGGGC	0.144	0.0909	0.0121	0
GGAAACCGGGGCUAC	0.160	0.0792	0.0254	0
GGAAACCGGAGGAUC	0.176	0.117	0.0182	0
GGAAACCGGGCCGAC	0.160	0.0890	0.00668	0.00760
GGAAACCGAUAUUUC	0.272	0.353	0.123	0.0923
GGAAACCGAUCUAAC	0.176	0.262	0.00668	0
GGAAACCGCGCUUGC	0.240	0.124	0.0303	0
GGAAACCGCGCAGCC	0.240	0.0335	0.0282	0
GGAAACCACUACUAC	0.128	0.373	0.337	0.154
GGAAACCGAUUGACC	0.240	0.0655	0.00742	0
GGAAACCGAUAGGAC	0.352	0.258	0.114	0.0752
GGAAACCGAUAAAGC	0.352	0.0827	0.0128	0
GGAAACCGGAUGCGC	0.160	0.0887	0	0
GGAAACCGGCACCAC	0.352	0.0941	0.00668	0
GGAAACCGGUAUUCC	0.256	0.262	0.145	0.0107
GGAAACCGAAAGACC	0.272	0.118	0.0134	0.00537
GGAAACCGGCUUUAC	0.272	0.176	0.00668	0.00760
GGAAACCGGAGUAGC	0.160	0.0967	0.0134	0
GGAAACCGGGUCACC	0.176	0.0612	0.0108	0
GGAAACCGCCAAGGC	0.176	0.0551	0.00742	0
GGAAACCGCAACAGC	0.240	0.0577	0.00668	0
GGAAACCGCGAGAUC	0.240	0.271	0.161	0.0999
GGAAACCGUUCGUGC	0.256	0.368	0.121	0.0518
GGAAACCGCGCGAGC	0.272	0.390	0.0223	0.0158
GGAAACCGCGGCACC	0.224	0.210	0.0175	0.00537
GGAAACCGUACAGGC	0.144	0.0991	0.00668	0
GGAAACCGGGGACGC	0.304	0.0750	0.00742	0.00760
GGAAACCGGGCAGGC	0.176	0.102	0.00539	0.00504
GGAAACCGGUCACCC	0.192	0.0750	0.0215	0
GGAAACCGUCCUGGC	0.160	0.303	0.0121	0.00537
GGAAACCGCCAACGC	0.304	0.0739	0.00668	0.00760
GGAAACCGACAUUUC	0.368	0.390	0.0928	0.0670
GGAAACCGCUACUGC	0.432	0.476	0.914	0.219
GGAAACCGCGGAGGC	0.256	0.0705	0.00539	0
GGAAACCGGGUUGCC	0.176	0.0903	0.0128	0
GGAAACCGGGGGCGC	0.192	0.0778	0.00742	0
GGAAACCGCUUACUC	0.144	0.106	0.00668	0
GGAAACCGAAGAACC	0.256	0.114	0.0134	0
GGAAACCGUUGUAGC	0.208	0.135	0.00742	0.00537
GGAAACCGAUUUGCC	0.336	0.0912	0.0267	0
GGAAACCGUCGCGGC	0.240	0.0827	0.0187	0
GGAAACCGUCCGCUC	0.288	0.317	0.0200	0
GGAAACCGUACAGCC	0.192	0.122	0.00668	0
GGAAACCGCACUUGC	0.272	0.0769	0.0269	0
GGAAACCGUAUGCCC	0.176	0.137	0	0.00537
GGAAACCGGAUAUAC	0.208	0.148	0	0.0107
GGAAACCGUACUACC	0.192	0.0893	0.0121	0

4 of these entries, quoted again:

{"sequence": "GGAAACCGCGCUUGC", "pool": "0.240", "inoculated region": 0.124, "leaf margin": 0.0303, "systemic leaves": 0}
{"sequence": "GGAAACCGGAGGAUC", "pool": "0.176", "inoculated region": 0.117, "leaf margin": 0.0182, "systemic leaves": 0}
{"sequence": "GGAAACCGCAACAGC", "pool": "0.240", "inoculated region": 0.0577, "leaf margin": 0.00668, "systemic leaves": 0}
{"sequence": "GGAAACCGCUACUGC", "pool": "0.432", "inoculated region": 0.476, "leaf margin": 0.914, "systemic leaves": 0.219}

The authors trace changes outside the varied positions to PCR and sequencing errors or to mutation in the plant; presence does not show that a variant is infectious alone. Samples held 43,870 to 66,106 reads, so the smallest values rest on one or two reads. For reference, wild type rose from 33.9 per thousand in the pool to 202, 200, 159 (inoculated region), 724, 746, 710 (leaf margin) and 856, 883, 880 (systemic leaves).